The values below are quoted from earlier work in publication PMC4885069.

The target of the data set is SV2C LD4 (Rattus norvegicus) (UniProt Q9Z2I6). In words: SPR. As to conditions: cited from earlier work.

For orientation: Kd means the constant that tells how readily two partners part at equilibrium. As for BoNT/A HC (from UniProt P0DPI1), the dissociation constant Kd is 550 nM.
